Results deposited as PubChem BioAssay AID504761 (Drosophila RNAi Screening Center, 2011)

Aim: 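Genome-wide fly cell screen for genes dengue virus requires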 (primary screen)
System: D.Mel-2 cells from Drosophila
Reagents: long dsRNA against Drosophila genes
Treatment: infection with dengue virus type 2; dose and infection time not stated
Detection: 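Cells stained for dengue envelope protein and imaged; percent of infected cells per well on duplicate plates, ranked by infection, with stained nuclei counted for cell number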
Reading the numbers: infection score: higher = more virus-infected cells
Call rule: 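Very low infection ranking in both replicate wells (chance probability at most 0.065), then a retest showing infection dropped 1.5-fold or more at p below 0.05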
Meaning of the calls: active = confirmed: knock-down lowers infection; inactive = not picked or not confirmed
The deposit covers about 22,000 reagents; below is an unselected part of those that have a named target and a result. Of all reagents, 116 (0.52%) are marked active. 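Calls depend on retest data that are not deposited; infection was ranked per plate without normalising between plates; the unit of the infection score is not given.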 Entries without a mark were called inactive. Reagents against one gene are numbered here. Further read-outs or replicates are left out here. Not given: the amount of reagent, the time to read-out.

Which result is listed for Ets97D (Ets at 97D) #1?
infection score, replicate 1: 2.18

What is on record for Ets97D (Ets at 97D) #2?
infection score, replicate 1: 9.35

Which result is listed for CG31244?
infection score, replicate 1: 7.8

For sun (stunted) #1, what does the deposit list?
infection score, replicate 1: 5.05

What did the screen give for sun (stunted) #2?
infection score, replicate 1: 23.2

With CG13334, how do the results read?
infection score, replicate 1: 18

For RpL31 (Ribosomal protein L31) #1, what was measured?
infection score, replicate 1: 2.29

What is on record for RpL31 (Ribosomal protein L31) #2?
infection score, replicate 1: 12

Which result is listed for CG8768?
infection score, replicate 1: 13.3

What is on record for Acadvl (Acyl-CoA dehydrogenase very long chain) #1?
infection score, replicate 1: 5.03

For Acadvl (Acyl-CoA dehydrogenase very long chain) #2, how do the results read?
infection score, replicate 1: 2.48

For sNPF (short neuropeptide F precursor), what does the deposit list?
infection score, replicate 1: 5.08

For Fip1 (Factor interacting with poly(A) polymerase 1), what does the deposit list?
infection score, replicate 1: 3.05

For CG5276, what was measured?
infection score, replicate 1: 8.4

With CSN8 (COP9 signalosome subunit 8), what was measured?
infection score, replicate 1: 2.59

With Or30a (Odorant receptor 30a), how do the results read?
infection score, replicate 1: 1.6

For obst-F (obstructor-F) #1, how do the results read?
infection score, replicate 1: 2.31

How did the screen score obst-F (obstructor-F) #2?
infection score, replicate 1: 2.9

Which result is listed for Gr10b (Gustatory receptor 10b) #1?
infection score, replicate 1: 6.93

Which result is listed for Gr10b (Gustatory receptor 10b) #2?
infection score, replicate 1: 20.9

How did the screen score CG10283 #1?
infection score, replicate 1: 4.33

What did the screen give for CG10283 #2?
infection score, replicate 1: 4.58

Targets above whose target name begins with A or a:
Acadvl (Acyl-CoA dehydrogenase very long chain) #1 — infection score, replicate 1: 5.03
Acadvl (Acyl-CoA dehydrogenase very long chain) #2 — infection score, replicate 1: 2.48
